Results as given in publication PMC5825169 (PLoS Pathogens, 2018).

Test system: RbmC2 D853A
Conditions: ITC; D853A point mutant (GFPUV fusion)

## OC[C@H]1O[C@H](OC[C@H]2OC(O)[C@@H](O)[C@@H](O[C@H]3O[C@H](CO)[C@@H](O)[C@H](O)[C@@H]3O)[C@@H]2O)[C@@H](O)[C@@H](O)[C@@H]1O (stereo partly drawn) [Mannotriose, 1,3-α-1,6-α-D-mannotriose]
  Binding to RbmC2 D853A mutant: lack of binding
